Laboratory results as given in the supplement of paper PMC9931576.
Human monoclonal antibodies against the spike receptor-binding domain (heavy:light variable regions). IC50 against pseudoviruses bearing the spike of naturally observed variants; lower = stronger; >10 µg/ml means not reached at the top dose. No active / inactive call. The stated detection limit is 0.0005 µg/ml; values near or below 0.001 µg/ml lie at the floor of the assay.

Assays:
Experiment in all cases: pseudovirus neutralization IC50; higher = weaker neutralization
[1] = target: SARS-CoV-2 Omicron BA.1 spike pseudovirus
Method: (§1)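 Single-round VSV luciferase pseudovirus mixed with antibody dilutions for 1 h and put on Huh-7 cells for about a day; IC50 from the dose curve.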

[2] = target: SARS-CoV-2 Omicron BA.2 spike pseudovirus
Method: as §1

[3] = target: SARS-CoV-2 Omicron BA.2.75 spike pseudovirus
Method: as §1

[4] = target: SARS-CoV-2 Omicron BA.5 spike pseudovirus
Method: as §1

[5] = target: SARS-CoV-2 Omicron BQ.1.1 spike pseudovirus
Method: as §1

[6] = target: SARS-CoV-2 Omicron XBB spike pseudovirus
Method: as §1

[7] = target: SARS-CoV-2 early D614G spike pseudovirus
Method: as §1

B1: BD55-6613 (protein)
chain 1: EVQLVQSGAEVKKPGESLRISCKGSGYTFTTYWISWVRQMPGRGLEWLGRIDPSDSDADYSPSFQGHVTFSSDKSISTAYLQWSRLKASDTAVYYCARHFYNYGSGSYVFEFWGQGTQVTVSS
chain 2: DIQMTQSPSSLSASAGDRVTITCQASQDIRKFLNWYQQKPGKAPSLLIYDASNLAPGVPSRFSGSGSGTDFTFTISSLQPEDVATYYCQHYDNLPLTFGGGTRVDIK
In the case of B1, the “pseudovirus neutralization IC50” value [1] is reported as > 10 µg/mL, the “pseudovirus neutralization IC50” value [2] is reported as > 10 µg/mL and the “pseudovirus neutralization IC50” value [3] is reported as > 10 µg/mL. The “pseudovirus neutralization IC50” value [4] was > 10 µg/mL, the “pseudovirus neutralization IC50” value [5] was > 10 µg/mL and the “pseudovirus neutralization IC50” value [6] was > 10 µg/mL. The “pseudovirus neutralization IC50” value [7] was > 10 µg/mL.

B2: BD55-6627 (protein)
chain 1: QVKLLQSGSELKKPGASVKVSCKASGYTFTAYAVNWVRQAPGQGLEWMGWIDTNTGIPTYAQGFTGRFVLSLDTSVSTAYVLISSLKAEDTAVYYCARADRNYFGYEAFDIWGQGTMVTVSS
chain 2: DIQMTQSPSSLSASVGDRVTITCRASQSISNYLNWYQQKPGKAPNLLISAASSLQSGVPSRFSGSGSETDFTLTIYSLQPEDFATYYCQQSYSSHLLTFGGGTKVE
For B2, the “pseudovirus neutralization IC50” value [1] was 2.09 µg/mL, the “pseudovirus neutralization IC50” value [2] was 1.68 µg/mL and the “pseudovirus neutralization IC50” value [3] was 1.66 µg/mL. For the same binder, the “pseudovirus neutralization IC50” value [4] was 1.33 µg/mL, the “pseudovirus neutralization IC50” value [5] was > 10 µg/mL and the “pseudovirus neutralization IC50” value [6] was > 10 µg/mL. For the same binder, the “pseudovirus neutralization IC50” value [7] was 0.281 µg/mL.

B3: BD55-6630 (protein)
chain 1: QVQLVESGGGVVQPGRSLRLSCAASGFIFGDYDMHWVRQAPGKGLEWMAVIWYDGSEQYYGDSVKGRFTISRDNSRNTLYLQMNSLRAADTAVYYCARLSTERKYSGYDHLSQEPNIWGQGTLVTVSS
chain 2: SSQLTQDPAVSVALGQTVRITCQGDGLRSYYATWTQQKPGQAPIVVIYGKNKRPSGIPDRFSGSDSGNTASLTITGAQAEDEADYYCSSRDRSDYQYVFGSGTKVTVL
B3 was tested, and the “pseudovirus neutralization IC50” value [1] was > 10 µg/mL, the “pseudovirus neutralization IC50” value [2] was > 10 µg/mL and the “pseudovirus neutralization IC50” value [3] was > 10 µg/mL. For the same binder, the “pseudovirus neutralization IC50” value [4] was > 10 µg/mL, the “pseudovirus neutralization IC50” value [5] was > 10 µg/mL and the “pseudovirus neutralization IC50” value [6] was > 10 µg/mL. For the same binder, the “pseudovirus neutralization IC50” value [7] was 1.8 µg/mL.

B4: BD55-1274 (protein)
chain 1: EVQLVESGGGLVQPGGSLRLSCAASGFAFGRYWMHWVRQAPGKGLVWVSRINNDGSSTSFADSVKGRFTMSRDNAKNTLYLQMNSLRADDTAVYYCARAPPGSGPLPFDYWGQGTLVTVSS
chain 2: SYVLTQPPSVSVAPGKTARITCGTSNIGSDTVHWYQQKSGQAPVLVMSYANDRPSGIPERFSGSNSGSTATLTISRVEAGDEADYYCQVWASSGDPLYVFGTGTKVAVL
For B4, the “pseudovirus neutralization IC50” value [1] was > 10 µg/mL, the “pseudovirus neutralization IC50” value [2] was > 10 µg/mL and the “pseudovirus neutralization IC50” value [3] was > 10 µg/mL. The “pseudovirus neutralization IC50” value [4] was > 10 µg/mL, the “pseudovirus neutralization IC50” value [5] was > 10 µg/mL and the “pseudovirus neutralization IC50” value [6] was > 10 µg/mL. The “pseudovirus neutralization IC50” value [7] was 0.25 µg/mL.

B5: BD55-6626 (protein)
chain 1: EVQLVESGGGLVQPGGSLRLSCAASGFTFSTYTMHWVRQAPGKGLEYVSAISSDGYTTYSAKSVKGRFTISRDNSKNTLFLEMGSLRAEDTAVYYCARDLPYDAWRGTGMDVWGPGTTVTVSS
chain 2: QSVLTQPPSVSGAPGQRVTISCSGSRSDIGAGYDVHWYQQLPGTAPKLLIYGSRHRPSGVPDRFSGSKSGTSASLAITGLQAEDEADYYCQSYDSSLSGHVVFGEGTKLTVL
B5 was tested, and the “pseudovirus neutralization IC50” value [1] was > 10 µg/mL, the “pseudovirus neutralization IC50” value [2] was > 10 µg/mL and the “pseudovirus neutralization IC50” value [3] was > 10 µg/mL. The “pseudovirus neutralization IC50” value [4] was > 10 µg/mL, the “pseudovirus neutralization IC50” value [5] was > 10 µg/mL and the “pseudovirus neutralization IC50” value [6] was > 10 µg/mL. For the same binder, the “pseudovirus neutralization IC50” value [7] was 0.0986 µg/mL.

B6: BD55-6618 (protein)
chain 1: QVQLVQSGAEVKKPGSSVKVSCKASGGTLSTHGFNWVRQAPGQGLEWMGRIIPLLGVPQYAQNFQGRVTITADKSTRTTYMELSSLTSEDTAVYYCARDSLNSCSAGTCDRFYWGQGTLVTVSS
chain 2: DIVMTQSPDSLAVSLGERATINCKSSQTILYNSNNKNYLAWYQQKPGQPPKLLIYWASARESGVPDRFSGSGSGTDFTLTISSLQAEDVAVYYCQQYYSTPLTFGGGTKVEIK
B6 was tested, and the “pseudovirus neutralization IC50” value [1] was > 10 µg/mL, the “pseudovirus neutralization IC50” value [2] was > 10 µg/mL and the “pseudovirus neutralization IC50” value [3] was > 10 µg/mL. For the same binder, the “pseudovirus neutralization IC50” value [4] was > 10 µg/mL, the “pseudovirus neutralization IC50” value [5] was > 10 µg/mL and the “pseudovirus neutralization IC50” value [6] was > 10 µg/mL. The “pseudovirus neutralization IC50” value [7] was > 10 µg/mL.
